Activity calls are given as the source filed them. The rule behind the calls is not given here.
Legend:
[1] = target: T1, Neuronal acetylcholine receptor; alpha4/beta2 (Homo sapiens) (UniProt P17787+P43681); assay: Antagonist activity at human alpha4beta2 nAChR expressed in acetylcholine-induced Xenopus laevis oocytes assessed as inhibition of acetylcholine-induced current at 30 nM by two electrode voltage-clamp assay relative to control; settings: Oocyte
[2] = tested on: Oocyte; assay: Antagonist activity at human alpha1beta1epsilondelta nAChR expressed in acetylcholine-induced Xenopus laevis oocytes assessed as inhibition of acetylcholine-induced current at 100 nM by two electrode voltage-clamp assay relative to control
[3] = tested on: Oocyte; assay: Antagonist activity at human alpha1beta1epsilondelta nAChR expressed in acetylcholine-induced Xenopus laevis oocytes assessed as inhibition of acetylcholine-induced current at 30 nM by two electrode voltage-clamp assay relative to control
[4] = target: T2, Neuronal acetylcholine receptor; alpha3/beta4 (Homo sapiens) (UniProt P30926+P32297); assay: Antagonist activity at human alpha3beta4 nAChR expressed in acetylcholine-induced Xenopus laevis oocytes assessed as inhibition of acetylcholine-induced current at 30 nM by two electrode voltage-clamp assay relative to control; settings: Oocyte
[5] = tested on: Oocyte; assay: Antagonist activity at human alpha1beta1deltagamma nAChR expressed in acetylcholine-induced Xenopus laevis oocytes assessed as inhibition of acetylcholine-induced current at 100 nM by two electrode voltage-clamp assay relative to control
[6] = target: T1, Neuronal acetylcholine receptor; alpha4/beta2 (Homo sapiens); assay: Antagonist activity at human alpha4beta2 nAChR expressed in acetylcholine-induced Xenopus laevis oocytes assessed as inhibition of acetylcholine-induced current at 100 nM by two electrode voltage-clamp assay relative to control; settings: Oocyte
[7] = tested on: Oocyte; assay: Antagonist activity at human alpha1beta1deltagamma nAChR expressed in acetylcholine-induced Xenopus laevis oocytes assessed as inhibition of acetylcholine-induced current at 30 nM by two electrode voltage-clamp assay relative to control
[8] = target: T2, Neuronal acetylcholine receptor; alpha3/beta4 (Homo sapiens); assay: Antagonist activity at human alpha3beta4 nAChR expressed in acetylcholine-induced Xenopus laevis oocytes assessed as inhibition of acetylcholine-induced current at 100 nM by two electrode voltage-clamp assay relative to control; settings: Oocyte
[9] = tested on: Oocyte; assay: Antagonist activity at rat alpha1beta1deltagamma nAChR expressed in acetylcholine-induced Xenopus laevis oocytes assessed as inhibition of acetylcholine-induced current at 100 nM by two electrode voltage-clamp assay
[10] = tested on: Oocyte; assay: Antagonist activity at rat alpha1beta1epsilondelta nAChR expressed in acetylcholine-induced Xenopus laevis oocytes assessed as inhibition of acetylcholine-induced current at 100 nM by two electrode voltage-clamp assay

Amino acid sequences for entries named in this document (tags omitted). A change or cut given only in a name is not applied to a line headed by its entry.
UniProt P17787, whole entry, looked up: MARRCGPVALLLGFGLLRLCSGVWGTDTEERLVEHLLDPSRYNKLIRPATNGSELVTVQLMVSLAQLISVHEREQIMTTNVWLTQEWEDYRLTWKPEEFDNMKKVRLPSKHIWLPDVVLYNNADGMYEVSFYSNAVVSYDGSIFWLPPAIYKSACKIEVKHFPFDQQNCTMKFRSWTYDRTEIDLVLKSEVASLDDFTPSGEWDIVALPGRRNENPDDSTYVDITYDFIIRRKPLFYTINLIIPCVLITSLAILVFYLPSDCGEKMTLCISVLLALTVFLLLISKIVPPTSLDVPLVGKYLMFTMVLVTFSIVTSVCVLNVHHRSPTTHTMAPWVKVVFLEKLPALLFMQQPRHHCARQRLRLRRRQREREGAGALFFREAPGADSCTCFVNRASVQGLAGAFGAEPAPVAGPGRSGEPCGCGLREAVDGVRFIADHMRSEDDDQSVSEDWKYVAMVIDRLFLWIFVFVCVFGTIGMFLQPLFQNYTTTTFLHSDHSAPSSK
UniProt P43681: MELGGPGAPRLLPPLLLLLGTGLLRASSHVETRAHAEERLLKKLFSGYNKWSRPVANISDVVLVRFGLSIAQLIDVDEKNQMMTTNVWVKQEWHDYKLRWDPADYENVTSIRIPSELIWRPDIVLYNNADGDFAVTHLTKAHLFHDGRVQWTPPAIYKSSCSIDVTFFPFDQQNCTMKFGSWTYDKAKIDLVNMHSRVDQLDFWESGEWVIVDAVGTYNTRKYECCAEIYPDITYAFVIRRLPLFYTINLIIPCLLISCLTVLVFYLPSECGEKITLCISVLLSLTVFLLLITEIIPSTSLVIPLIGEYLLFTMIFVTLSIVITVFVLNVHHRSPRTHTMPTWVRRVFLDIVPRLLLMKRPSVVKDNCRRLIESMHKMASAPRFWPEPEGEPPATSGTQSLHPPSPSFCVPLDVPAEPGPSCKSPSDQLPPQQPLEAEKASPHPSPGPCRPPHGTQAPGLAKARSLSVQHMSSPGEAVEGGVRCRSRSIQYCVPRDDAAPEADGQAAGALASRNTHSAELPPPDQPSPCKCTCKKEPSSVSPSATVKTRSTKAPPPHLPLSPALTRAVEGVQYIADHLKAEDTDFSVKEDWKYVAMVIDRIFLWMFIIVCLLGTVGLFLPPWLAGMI
UniProt P30926, whole entry, looked up: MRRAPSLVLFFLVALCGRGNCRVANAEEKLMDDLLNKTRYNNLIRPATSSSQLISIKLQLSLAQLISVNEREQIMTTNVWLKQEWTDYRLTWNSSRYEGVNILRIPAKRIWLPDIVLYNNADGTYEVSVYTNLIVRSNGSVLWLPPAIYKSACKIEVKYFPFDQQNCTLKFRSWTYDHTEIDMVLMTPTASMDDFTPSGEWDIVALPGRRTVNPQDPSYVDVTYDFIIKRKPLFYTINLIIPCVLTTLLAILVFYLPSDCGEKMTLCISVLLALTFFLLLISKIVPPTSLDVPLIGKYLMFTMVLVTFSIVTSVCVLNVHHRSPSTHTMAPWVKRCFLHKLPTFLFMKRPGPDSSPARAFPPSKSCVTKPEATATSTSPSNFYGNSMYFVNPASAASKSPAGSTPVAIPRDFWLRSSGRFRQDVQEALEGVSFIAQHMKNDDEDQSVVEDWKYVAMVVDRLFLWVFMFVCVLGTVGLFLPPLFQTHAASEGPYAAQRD
UniProt P32297, whole entry, looked up: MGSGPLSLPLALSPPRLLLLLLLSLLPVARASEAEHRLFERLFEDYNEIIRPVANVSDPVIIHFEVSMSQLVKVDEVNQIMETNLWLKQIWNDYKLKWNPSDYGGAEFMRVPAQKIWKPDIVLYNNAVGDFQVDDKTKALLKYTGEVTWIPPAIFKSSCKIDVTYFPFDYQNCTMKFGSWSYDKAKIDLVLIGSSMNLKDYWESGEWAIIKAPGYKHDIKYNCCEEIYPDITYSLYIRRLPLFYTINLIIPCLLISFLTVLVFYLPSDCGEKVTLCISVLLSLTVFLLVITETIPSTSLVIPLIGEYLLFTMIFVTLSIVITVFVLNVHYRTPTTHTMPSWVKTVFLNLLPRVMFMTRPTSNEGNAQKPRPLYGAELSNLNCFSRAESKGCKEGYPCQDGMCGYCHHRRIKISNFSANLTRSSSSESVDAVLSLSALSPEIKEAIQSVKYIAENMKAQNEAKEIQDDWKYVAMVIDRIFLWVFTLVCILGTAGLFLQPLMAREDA

CC[C@H](C)[C@H](NC(=O)[C@H](CCCNC(=N)N)NC(=O)[C@H](CCCNC(=N)N)NC(=O)[C@H](Cc1ccc(O)cc1)NC(=O)[C@H](CCCNC(=N)N)NC(=O)[C@H](CCCNC(=N)N)NC(=O)[C@H](CCCNC(=N)N)NC(=O)[C@H](CCCNC(=N)N)NC(=O)[C@H](CC(=O)O)NC(=O)[C@H](Cc1ccc(O)cc1)NC(=O)[C@@H]1CCCN1C(=O)[C@H](CO)NC(=O)[C@H](CCCNC(=N)N)NC(=O)[C@H](Cc1ccc(O)cc1)NC(=O)[C@H](CCCNC(=N)N)NC(=O)CN)C(=O)N[C@H](C(=O)N[C@@H](CC(=O)O)C(N)=O)[C@@H](C)O
inhibition [1]: < 5%
inhibition [2]: < 5%
inhibition [3]: < 5%
inhibition [4]: < 5%
inhibition [5]: < 5%
inhibition [6]: < 5%
inhibition [7]: < 5%
inhibition [8]: < 5%
inhibition [9]: inactive
inhibition [10]: inactive

Reference: ChEMBL document CHEMBL5537181 (J Med Chem, 2024)
